Measured values from several laboratories, pooled; numbers as filed in NIAID ChemDB.

All rows: whole-cell or culture tests; agent: HIV-1

ECn: concentration that inhibits the pathogen or its effect by n%. Two numbers with a dash give a range or band. Blank or dashed fields: not listed here. Rows are shuffled and stem from different studies.

smiles | cells | mutations | strain | measure | method | result
CN1CCn2c(nc(C(=O)NCc3cccc(Cl)c3)c(O)c2=O)C(N(C)C(=O)C(=O)N(C)C)C1 | MT-4 | - | - | EC50 | p24 | <1 µM
COc1ccc(-c2c(C)nc3c(N4CC[C@@H](NC(=O)OCc5ccccc5)C4)cc(C)nn23)cc1OC | H9 | - | - | EC50 | p24 | 0.3 µM
N#Cc1cc(C#N)cc(Oc2cc(Cl)cc(OCC(=O)Nc3ccc(S(N)(=O)=O)cc3Cl)c2)c1 | MT-4 | - | - | EC95 | p24 | <20 µM
Cn1nc(NC(=O)c2cc(N)nn2C)cc1C(=O)Nc1ccc2cc(S(=O)(=O)O)cc(S(=O)(=O)O)c2c1 | CEM + CEM-SS | - | RF | EC50 | cytopathic effect / XTT | >200 µM
CC(C)CN(C[C@@H](O)[C@H](Cc1ccccc1)NC(=O)[C@@H](NC(=O)OCc1ccccn1)C(C)C)S(=O)(=O)c1ccc(F)cc1 | CEM | - | IIIB | EC50 | p24 | <0.101 µM
CC1(C)NCCn2c1nc(C(=O)NCc1ccc(F)cc1)c(O)c2=O | MT-4 | - | - | EC95 | p24 | <50 µM
CC(C)CN(C[C@@H](O)[C@H](Cc1ccccc1)NC(=O)O[C@@H]1CCOC1)S(=O)(=O)c1ccc([N+](=O)[O-])cc1 | CEM | - | IIIB | EC50 | p24 | <0.101 µM
C#C[C@@]1(CO)C=C[C@H](n2cc(C)c(=O)[nH]c2=O)O1 | MT-2 | M41L/D67N/K70R/K103N/L210W/T215F/K219Q | Clinical isolate | EC50 | recombinant virus assay | 4.845 µM
COc1ccc(-c2nn(C)c3c(N4CC[C@@H](NC(C)=O)C4)nc(C)nc23)cc1OC | H9 | - | - | EC50 | p24 | >100 µM
Cn1cc(NC(=O)Nc2cc(C(=O)Nc3cc(C(=O)Nc4cc(S(=O)(=O)O)c5cc(S(=O)(=O)O)cc(S(=O)(=O)O)c5c4)n(C)c3)n(C)c2)cc1C(=O)Nc1cc(C(=O)Nc2cc(S(=O)(=O)O)c3cc(S(=O)(=O)O)cc(S(=O)(=O)O)c3c2)n(C)c1 | CEM + CEM-SS | - | G691-2 | EC50 | cytopathic effect / XTT | 0.1 µM
COC1CN(c2ccc3c(COc4ccc(Cl)c(Oc5cc(Cl)cc(C#N)c5)c4)[nH]nc3n2)C1 | MT-4 | - | - | EC95 | p24 | <20 µM
Cn1cc(NC(=O)Nc2cc(C(=O)Nc3cc(C(=O)Nc4ccc5cc(S(=O)(=O)O)cc(S(=O)(=O)O)c5c4)n(C)c3)n(C)c2)cc1C(=O)Nc1cc(C(=O)Nc2ccc3cc(S(=O)(=O)O)cc(S(=O)(=O)O)c3c2)n(C)c1 | CEM + CEM-SS | - | RF | EC50 | cytopathic effect / XTT | 29.6 µM
Cn1c(COc2ccc(Cl)c(Oc3cc(Cl)cc(C#N)c3)c2)nc2ccccc21 | MT-4 | - | - | EC50 | p24 | <20 µM
CC(=O)Nc1cccc(S(=O)(=O)N(CC(C)C)C[C@@H](O)[C@H](Cc2ccccc2)NC(=O)OC2CCOC2)c1 | CEM | - | IIIB | EC50 | p24 | <0.101 µM
CN(CC(N)=O)c1ccc2c(COc3ccc(Cl)c(Oc4cc(Cl)cc(C#N)c4)c3)[nH]nc2n1 | MT-4 | - | - | EC95 | p24 | <20 µM
Cc1cc(C)c(CS(=O)c2cccc[n+]2[O-])c(C)c1 | CEM | RT-L100I | IIIB | EC50 | syncytia | 4.5 µg/mL
CC(C)OC(=O)OCOP(=O)(CO[C@H](C)Cn1cnc2c(N)ncnc21)OCOC(=O)OC(C)C | C8166 | V106M | - | EC50 | p24 / ELISA | 0.01098 µM
CC(C)c1ccc(CS(=O)(=O)c2cccc[n+]2[O-])cc1 | CEM | - | IIIB | EC50 | p24 | ~20 µg/mL
CC(C)CN(C[C@@H](O)[C@H](Cc1ccccc1)NC(=O)OCc1cccnc1)S(=O)(=O)c1ccc2nonc2c1 | CEM | - | IIIB | EC50 | p24 | <1.001 µM
C[C@H](Cn1cnc2c(N)ncnc21)OCP(=O)(O)O | MT-2 | M41L/A98G/K103N/M184V/L210W/T215Y | Clinical isolate | EC50 | recombinant virus assay | 0.0112 µM
Cn1cc(NC(=O)Nc2cc(C(=O)Nc3cc(C(=O)Nc4ccc(S(=O)(=O)O)c5cccc(S(=O)(=O)O)c45)n(C)c3)n(C)c2)cc1C(=O)Nc1cc(C(=O)Nc2ccc(S(=O)(=O)O)c3cccc(S(=O)(=O)O)c23)n(C)c1 | CEM + CEM-SS | - | RF | EC50 | cytopathic effect / XTT | >200 µM
Cc1occc1C(=S)Nc1ccc(Cl)c(C(=O)OC(C)C)c1 | CEM | RT-V106A | - | EC50 | syncytia | 1.7 µM
COc1ccc(-c2c(C)nc3c(N4CC[C@@H](NC(=O)C(F)(F)F)C4)cc(C)nn23)cc1OC | H9 | - | - | EC50 | p24 | 0.9 µM
CCCc1cc(=O)oc2c3c(c4c(c12)OC(C)(C)CC4)O[C@@H](C)[C@H](C)[C@@H]3O | CEM + CEM-SS | - | RF | EC50 | cytopathic effect / XTT | 0.6 µM
Nc1nc(=O)n([C@H]2C=C[C@@H](CO)O2)cc1F | PBMC | - | BRU | EC50 | PCR | <0.22 µM
C=C(C)[C@@H]1CC[C@]2(C(=O)NCCCCCCCCC(=O)N[C@H](CCC(N)=O)C(=O)OC)CC[C@]3(C)[C@H](CC[C@@H]4[C@@]5(C)CC[C@H](OC(=O)CC(C)(C)C(=O)O)C(C)(C)[C@@H]5CC[C@]43C)[C@@H]12 | - | V370delta | NL4-3 | EC50 | absorbance | 0.324 µM
Cn1cccc1C(=S)Nc1ccc(Cl)c(/C=N/OC(C)(C)C)c1 | CEM | RT-E138K | - | EC50 | syncytia | 0.364 µM
CN(C)C(=O)C(=O)N(C)CC1c2nc(C(=O)NCc3ccc(F)cc3)c(O)c(=O)n2CCN1C | MT-4 | - | - | EC50 | p24 | 1–10 µM
COCCN(C)c1ccc2c(COc3ccc(Cl)c(Oc4cc(Cl)cc(C#N)c4)c3)[nH]nc2n1 | MT-4 | - | - | EC95 | p24 | <20 µM
COc1cc(-c2ccc(N=Nc3ccc4c(S(=O)(=O)O)cc(S(=O)(=O)O)c(N)c4c3O)c(OC)c2)ccc1N=Nc1ccc2c(S(=O)(=O)O)cc(S(=O)(=O)O)c(N)c2c1O | CEM + CEM-SS | - | PM16 | EC50 | RT activity | 0.6 µM
CNC(=O)c1c(O)c2ncc(Cc3ccc(F)cc3)c3c2n(c1=O)C=C(C(=O)NCC(C)(C)C#N)O3 | MT-2 | - | IIIB | EC50 | ATP / luminescence | 0.0007 µM
CC(C)OC(=O)c1cc(NC(=S)c2cccs2)ccc1Cl | CEM | RT-V106A | - | EC50 | syncytia | 1.7 µM
O=S(=O)(Cc1ccccc1I)c1cccc[n+]1[O-] | CEM | - | MN | EC50 | syncytia | 9.4 µg/mL
COc1ccc(-c2c(C)nc3c(N4CCOCC4)cc(C)nn23)cc1OC | H9 | - | - | EC50 | p24 | >1 µM
CC(C)=CCOc1cc(NC(=S)c2ccoc2C)ccc1Cl | CEM + CEM-SS | - | SK1 | EC50 | cytopathic effect / XTT | 0.006 µM
CC(=O)N[C@@H]1CCN(c2cc(C)nn3c(C)c(C)nc23)C1 | H9 | - | - | EC50 | p24 | >1 µM
N#Cc1cc(Cl)cc(Oc2cc(Cl)cc(OCC(=O)NC3CCS(=O)(=O)C3)c2)c1 | MT-4 | - | - | EC95 | p24 | <20 µM
COc1cc(N2CC[C@@H](NC(C)=O)C2)c2nc(C)c(-c3ccc(OC)c(OC)c3)n2n1 | H9 | - | - | EC50 | p24 | >1 µM
CNC(=O)[C@@]1(C)Cn2c(=O)c(C(=O)NC3CC3)c(O)c3ncc(Cc4ccc(F)cc4)c(c32)O1 | MT-2 | - | IIIB | EC50 | ATP / luminescence | 0.016 µM
CC(C)=CCOc1cc(NC(=S)c2ccsc2C)ccc1Cl | CEM + CEM-SS | - | Isolate NL4-3 | EC50 | cytopathic effect / XTT | 0.006 µM
Cc1ccc(S(=O)(=O)N(CC(C)C)C[C@@H](O)[C@H](Cc2ccccc2)NC(=O)O[C@@H]2CCOC2)cc1 | CEM | - | IIIB | EC50 | p24 | <0.101 µM
CCN1CCn2c(nc(C(=O)NCc3ccc(F)cc3)c(O)c2=O)C(N(C)C(=O)C(=O)N(C)C)C1 | MT-4 | - | - | EC95 | p24 | <1 µM
N#Cc1cc(Cl)cc(Oc2cc(Cl)cc(OCc3nc4cccc(Cl)c4s3)c2)c1 | MT-4 | - | - | EC50 | p24 | <20 µM
Cc1cc(CN2CCn3c(nc(C(=O)NCc4ccc(F)cc4)c(O)c3=O)C2(C)C)no1 | MT-4 | - | - | EC50 | p24 | <1 µM
CC(=O)Nc1ccc(S(=O)(=O)N(CC(C)C)C[C@@H](O)[C@H](Cc2ccccc2)NC(=O)O[C@@H]2CCOC2)cc1 | CEM | - | IIIB | EC50 | p24 | <0.101 µM
CNC(=O)c1c(O)c2ncc(Cc3ccc(F)cc3)c3c2n(c1=O)C[C@](C)(C(=O)NCCN(C)C)O3 | MT-2 | - | IIIB | EC50 | ATP / luminescence | 0.225 µM
CC(=O)Nc1cc(S(=O)(=O)N(CC(C)C)C[C@@H](O)[C@H](Cc2ccccc2)NC(=O)OC(C)(C)C)ccc1F | CEM | - | IIIB | EC50 | p24 | <1.001 µM
C=C(C)[C@@H]1CC[C@]2(C(=O)NCCCCCCCC(=O)N[C@@H](CC(C)C)[C@@H](O)CC(=O)O)CC[C@]3(C)[C@H](CC[C@@H]4[C@@]5(C)CC[C@H](O)C(C)(C)[C@@H]5CC[C@]43C)[C@@H]12 | HeLa P4 + HeLa | GP41-K106R | LAI | EC50 | syncytia | <10 µM
CC(C)(C#N)CNC(=O)[C@@]1(C)Cn2c(=O)c(C(=O)NC3CC3)c(O)c3ncc(Cc4ccc(F)cc4)c(c32)O1 | MT-2 | - | IIIB | EC50 | ATP / luminescence | 0.029 µM
N#Cc1cc(Cl)cc(Oc2cc(OCc3cn(-c4ccccc4)nn3)ccc2Cl)c1 | MT-4 | - | - | EC95 | p24 | <20 µM

Repeating the final 4 entries:

smiles,cells,mutations,strain,measure,method,result
CC(=O)Nc1cc(S(=O)(=O)N(CC(C)C)C[C@@H](O)[C@H](Cc2ccccc2)NC(=O)OC(C)(C)C)ccc1F,CEM,-,IIIB,EC50,p24,<1.001 µM
C=C(C)[C@@H]1CC[C@]2(C(=O)NCCCCCCCC(=O)N[C@@H](CC(C)C)[C@@H](O)CC(=O)O)CC[C@]3(C)[C@H](CC[C@@H]4[C@@]5(C)CC[C@H](O)C(C)(C)[C@@H]5CC[C@]43C)[C@@H]12,HeLa P4 + HeLa,GP41-K106R,LAI,EC50,syncytia,<10 µM
CC(C)(C#N)CNC(=O)[C@@]1(C)Cn2c(=O)c(C(=O)NC3CC3)c(O)c3ncc(Cc4ccc(F)cc4)c(c32)O1,MT-2,-,IIIB,EC50,ATP / luminescence,0.029 µM
N#Cc1cc(Cl)cc(Oc2cc(OCc3cn(-c4ccccc4)nn3)ccc2Cl)c1,MT-4,-,-,EC95,p24,<20 µM